Results of unrelated studies side by side (data: NIAID ChemDB).

Shared fields: target-level tests; agent: HIV-1; protein: Reverse transcriptase

Blank or dashed fields: not listed here. ICn is the concentration giving n% inhibition. Conditions beyond the fields shown may differ between rows. a–b is a range or a potency band.

SMILES	strain or isolate	mutations	read by	measure	value
S=C1NC2=C(CCc3ccccc32)C(c2cccs2)N1			nucleotide incorporation	IC50	6.1 µM
O=C(CSc1nnnn1-c1ccccc1C(F)F)Nc1ccccc1[N+](=O)[O-]		RT-K103N Y181C	fluorescence	IC50	≥0.1 µM
O=C(CSc1nc(-c2cccs2)c2c(n1)-c1ccccc1CC2)NN1C(=O)c2ccccc2C1=O			nucleotide incorporation	IC50	16.2 µM
N#Cc1cnc2c(Cl)cccc2c1Nc1ccccc1			RT activity / fluorescence	IC50	≤12 µM
O=C(CSc1nnnn1-c1c(Cl)cccc1Cl)Nc1ccccc1[N+](=O)[O-]			fluorescence	IC50	<0.05 µM
N#Cc1cnc2c(Cl)cccc2c1Nc1ccc(F)cc1			RT activity / fluorescence	IC50	≤12 µM
CC(C)c1nnc2c3ccccc3c(N3CCc4ccc(NS(C)(=O)=O)cc4C3)nn12	98US_MSC5016		RT activity / fluorescence	IC90	2.77 µM
Cc1c(C)c2c(c(C)c1OC(=O)CCC(=O)OC1CC(COP(=O)(O)OC3CC(COP(=O)(O)OC4CC(CO)OC4n4cnc5c(N)ncnc54)OC3n3cnc4c(N)ncnc43)OC1n1cnc3c(N)ncnc31)CCC(C)(CCCC(C)CCCC(C)CCCC(C)C)O2				IC50	<300 µM
C=C(C)C1C=C[C@@H](OC(=O)c2cccnc2)C23COC(C)(C(=O)[C@@]4(OC(C)=O)C[C@H](C)[C@H](OC(=O)CCC)C4[C@H]2OC(=O)CCC)C13			nucleotide incorporation	IC50	66.8 µg/mL
Nc1nc2c(ncn2[C@H]2CC[C@@H](COP(=O)(O)OP(=O)(O)OP(=O)(O)O)O2)c(=O)[nH]1		RT-W229F	radiometric	IC50	0.68 µM
c1ccc2c(c1)CCN(c1nn3c(C4CC4)nnc3c3ccccc13)C2	98US_MSC5016		RT activity / fluorescence	IC50	0.42 µM
C#CCOc1cc(NC(=S)c2ccoc2C)ccc1Cl			nucleotide incorporation	IC50	3.039 µM
F/C(=C/c1ccccc1Cl)CSc1nnnn1-c1cccc2ccccc12			fluorescence	IC50	≥0.1 µM
C=C1CC[C@@H](OC(=O)CCC(=O)OCC2CC(OP(=O)(O)OCC3CC(OP(=O)(O)OCC4CC(O)C(n5cnc6c(N)ncnc65)O4)C(n4cnc5c(N)ncnc54)O3)C(n3cnc4c(N)ncnc43)O2)C/C1=C/C=C1\CCC[C@]2(C)[C@@H]([C@@H](C)/C=C/[C@H](C)C(C)C)CC[C@@H]12				IC50	>300 µM
Cc1cn([C@@H]2O[C@H](COP(=O)(O)OP(=O)(O)OP(=O)(O)O)[C@@H](O)[C@@H]2O)c(=O)[nH]c1=O			nucleotide incorporation	IC50	4.4 µM
C=C1CC[C@@H](OC(=O)CCC(=O)OC2CC(COP(=O)(O)OC3CC(COP(=O)(O)OC4CC(CO)OC4n4cnc5c(N)ncnc54)OC3n3cnc4c(N)ncnc43)OC2n2cnc3c(N)ncnc32)C/C1=C/C=C1\CCC[C@]2(C)[C@@H]([C@@H](C)/C=C/[C@H](C)C(C)C)CC[C@@H]12				IC50	<300 µM
Cc1cn([C@H]2CC[C@@H](COP(=O)(O)OP(=O)(O)OP(=O)(O)O)O2)c(=O)[nH]c1=O			nucleotide incorporation	IC50	<0.05 µM
Cc1ccc2c(c1)CCN(c1nn3c(C4CC4)nnc3c3ccccc13)C2	KER2008		RT activity / fluorescence	IC50	0.58 µM
N#Cc1cnc2c(F)cccc2c1Nc1ccc(Br)cc1			RT activity / fluorescence	IC50	≤10 µM
CCCCCCCCCCCCCCCCOCC(COC(=O)CCC(=O)OCC1CC(OP(=O)(O)OCC2CC(OP(=O)(O)OCC3CC(O)C(n4cnc5c(N)ncnc54)O3)C(n3cnc4c(N)ncnc43)O2)C(n2cnc3c(N)ncnc32)O1)OCCCCCCCCCCCCCCCC				IC50	<300 µM
N#Cc1cnc2c(Cl)cccc2c1Nc1cccc(Br)c1			RT activity / fluorescence	IC50	≤10 µM
O=C(CCl)SC1=NC(c2cccs2)C2=C(N1)c1ccccc1CC2			nucleotide incorporation	IC50	2.9 µM
C=CCOc1cc(NC(=S)c2ccsc2C)ccc1Cl			radiometric	IC50	2.531 µM
N#Cc1cnc2c(F)cccc2c1Nc1cccc(Cl)c1			RT activity / fluorescence	IC50	≤12 µM
CC(C)=CCOc1cc(NC(=S)c2ccoc2C)ccc1Cl			nucleotide incorporation	IC50	0.022 µM
N#Cc1cnc2c(Cl)cccc2c1Nc1ccc(Br)cc1			RT activity / fluorescence	IC50	≤12 µM
NNC(=O)CSc1nc(-c2cccs2)c2c(n1)-c1ccccc1CC2			nucleotide incorporation	IC50	5.6 µM
O=c1ccn(COCCOP(=O)(O)OP(=O)(O)OP(=O)(O)O)c(=O)[nH]1			nucleotide incorporation	IC50	0.86 µM
CC(C)(C)c1ccc(-n2nnnc2SCC(=O)Nc2ccc(S(=O)(=O)CC(=O)O)cc2Cl)c(Cl)c1		RT-K103N Y181C	fluorescence	IC50	0.05–0.1 µM
C=C(C)C1C=C[C@@H](OC(=O)c2cccnc2)C23COC(C)(C(=O)[C@@]4(OC(C)=O)C[C@H](C)[C@H](OC(=O)CC)C4[C@H]2OC(=O)CCC)C13			nucleotide incorporation	IC50	>200 µg/mL
Cc1cn([C@H]2CC(F)(F)[C@@H](COP(=O)(O)OP(=O)(O)OP(=O)(O)O)O2)c(=O)[nH]c1=O			nucleotide incorporation	IC50	8.83 µM
COc1ccc2c(c1)CCN(c1nn3c(C4CC4)nnc3c3ccccc13)C2	KER2008		RT activity / fluorescence	IC90	3.19 µM
COc1ccc2c(c1)N(C(=O)OC(C)C)[C@@H](CSC)C(=S)N2		RT-W229F	radiometric	IC50	0.0162 µM
CCn1c(C)c(C(=O)OC)c(C(=O)OC)c1Cc1ccccc1	BH10			IC50	0.64 µM
O=C1/C(=C/c2cccs2)CCc2ccccc21			nucleotide incorporation	IC50	6.1 µM
CCOCn1c(Cc2ccccc2)c(C(C)C)c(=O)[nH]c1=O			radiometric	IC50	0.122 µM
N#Cc1cnc2c(F)cccc2c1Nc1ccc(Cl)cc1			RT activity / fluorescence	IC50	≤12 µM
O=C(CSc1nc(-c2cccs2)c2c(n1)-c1ccccc1CC2)N/N=C/c1ccc(F)cc1			nucleotide incorporation	IC50	3.4 µM
Cc1occc1C(=S)Nc1ccc(Cl)c(OCC(=O)OC(C)(C)C)c1			nucleotide incorporation	IC50	9.476 µM

3 of the rows above, restated:

| SMILES | strain or isolate | mutations | read by | measure | value |
|---|---|---|---|---|---|
| N#Cc1cnc2c(Cl)cccc2c1Nc1ccccc1 |  |  | RT activity / fluorescence | IC50 | ≤12 µM |
| C=CCOc1cc(NC(=S)c2ccsc2C)ccc1Cl |  |  | radiometric | IC50 | 2.531 µM |
| O=C(CSc1nc(-c2cccs2)c2c(n1)-c1ccccc1CC2)N/N=C/c1ccc(F)cc1 |  |  | nucleotide incorporation | IC50 | 3.4 µM |